Pooled drug test results. Numbers come from NIAID ChemDB, via PubChem.

Common to all: whole-cell or culture tests; agent: HIV-1

Conditions beyond the fields shown may differ between rows. Fold resistance: result on the changed form divided by that on wild type. Blank or dashed fields: not listed here. ECn: concentration that inhibits the pathogen or its effect by n%.

smiles | strain | mutations | cells | read by | endpoint | result
COc1ccc(S(=O)(=O)N(CC(O)CN2CC(c3ccccc3)c3ccccc3C2=O)CC2CCCC2)cc1 | IIIB |  | CEM | p24 | EC90 | 1 µM
CCc1cc(C#N)cc(C(=O)c2cc(Cl)ccc2OCC(=O)Nc2ccc(S(N)(=O)=O)cc2C)c1 | HXB2 (RT-K103N Y181C) Recombinant | RT-K103N Y181C | HeLa + HELA CD4+ | β-galactosidase | fold resistance | ~1
COc1ccc(S(=O)(=O)N(CC(C)C)C[C@@H](O)CCN(CC2CCCC2)S(=O)(=O)CC2CCOC2)cc1 | IIIB |  | CEM | p24 | EC90 | 1 µM
Cc1ccc(C)n1-c1ccc(C(=O)O)c(O)c1 | 93IN101 R5 CLADE C |  | PBMC/5.25M7 | luciferase / cell fusion | EC90 | 37.51 µM
Cc1cc(C#N)cc(C(=O)c2cc(Cl)ccc2OCC(=O)Nc2cnc(S(N)(=O)=O)cc2C)c1 | HXB2 | RT-V108I Y181C | HeLa + HELA CD4+ | β-galactosidase | fold resistance | ~1
CC(C)=CCOc1cc(NC(=S)c2ccoc2C)ccc1Cl | NL4-3 | RT-Y181C | CEM + CEM-SS | p24 | fold resistance | 13
Cc1cc(S(N)(=O)=O)ccc1NC(=O)COc1ccc(Cl)cc1C(=O)c1cc(F)cc(F)c1 | HXB2 | RT-G190A | HeLa + HELA CD4+ | β-galactosidase | fold resistance | ~1
COc1ccnc2[nH]cc(C(=O)C(=O)N3C4CCC3CN(C(=O)c3ccccc3)C4)c12 | ZM214 |  | TZM-bl | luciferase | EC99 | 144 µM
CC(C)CN(CC(O)CC(=O)N1CCN(Cc2cccnc2)C[C@H]1C(=O)NC(C)(C)C)S(=O)(=O)c1ccccc1 | IIIB |  | CEM | p24 | EC90 | 1 µM
Cc1cc(S(N)(=O)=O)ccc1NC(=O)COc1ccc(Cl)cc1C(=O)c1cccc(C#N)c1 | HXB2 (RT-K103N Y181C) Recombinant | RT-K103N Y181C | HeLa + HELA CD4+ | β-galactosidase | fold resistance | ~10
CCC(=O)c1ccc(F)c([C@@H]2C[C@@H]2NC(=O)Nc2ccc(C#N)cn2)c1O | LAI | NNRTI-resistant (RT G190A) | TZM-bl | β-galactosidase / luminescence | fold resistance | 0.6
CC(C)CN(CC(O)CN(CC(C)C)S(=O)(=O)c1ccc(N)cc1)S(=O)(=O)c1ccccc1 | IIIB |  | CEM | p24 | EC90 | 1 µM
Cc1cc(S(N)(=O)=O)ccc1NC(=O)COc1ccc(Cl)cc1C(=O)c1cc(F)cc(C(F)(F)F)c1 | HXB2 | RT-G190A | HeLa + HELA CD4+ | β-galactosidase | fold resistance | ~1
O=C1Nc2ccc(F)c(F)c2[C@@](/C=C/C2CC2)(C(F)(F)F)N1 |  | RT-P225H |  |  | EC90 | <0.012 µM
Cc1cc(S(N)(=O)=O)ccc1NC(=O)COc1ccc(Cl)cc1C(=O)c1cccc(C#N)n1 | HXB2 | RT-K103N | HeLa + HELA CD4+ | β-galactosidase | fold resistance | ~1
O=C(c1ccccc1)N(CCc1ccccc1)C[C@H](O)CN(CC1CCCC1)S(=O)(=O)C1CCS(=O)(=O)CC1 | IIIB |  | CEM | p24 | EC90 | 1 µM
COc1ccnc2[nH]cc(C(=O)C(=O)N3CCN(C(=O)c4ccccc4)C[C@H]3C)c12 | PVO |  | TZM-bl | luciferase | EC90 | 0.22 µM
O=S(=O)(c1ccccc1)N(CCc1ccccc1)CC(O)CN(CC1CCCC1)S(=O)(=O)c1ccccc1 | IIIB |  | CEM | p24 | EC90 | 1 µM
O=C1Nc2ccc(Cl)cc2[C@@](/C=C/C2CC2)(C(F)(F)F)N1 |  | RT-P225H |  |  | EC90 | <0.012 µM
Cc1cc(C#N)cc(C(=O)c2cc(Cl)ccc2OCC(=O)Nc2ccc(OCCCN3CC=CC3)cc2C)c1 | HXB2 | RT-L100I | HeLa + HELA CD4+ | β-galactosidase | fold resistance | ~1
COc1ccc(S(=O)(=O)N(CC(C)C)C[C@@H](O)CCN(CC2CCCC2)S(=O)(=O)C2CCS(=O)(=O)CC2)cc1 | IIIB |  | CEM | p24 | EC90 | 1 µM

A second listing of 3 rows from above:

| smiles | strain | mutations | cells | read by | endpoint | result |
|---|---|---|---|---|---|---|
| Cc1cc(S(N)(=O)=O)ccc1NC(=O)COc1ccc(Cl)cc1C(=O)c1cccc(C#N)c1 | HXB2 (RT-K103N Y181C) Recombinant | RT-K103N Y181C | HeLa + HELA CD4+ | β-galactosidase | fold resistance | ~10 |
| COc1ccnc2[nH]cc(C(=O)C(=O)N3C4CCC3CN(C(=O)c3ccccc3)C4)c12 | ZM214 |  | TZM-bl | luciferase | EC99 | 144 µM |
| Cc1cc(S(N)(=O)=O)ccc1NC(=O)COc1ccc(Cl)cc1C(=O)c1cc(F)cc(F)c1 | HXB2 | RT-G190A | HeLa + HELA CD4+ | β-galactosidase | fold resistance | ~1 |